Measured values from several laboratories, pooled; numbers as filed in NIAID ChemDB.

Common to all: growth or infection tests; agent: HIV-1; cell line: MT-2; endpoint: EC50

Neighbouring rows are from separate reports. Blank or dashed fields: not listed here. ECn: concentration that inhibits the pathogen or its effect by n%.

smiles	strain or isolate	mutations	read by	result
CC(C)(C)NC(=O)[C@@H]1CN(Cc2cccnc2)CCN1C[C@@H](O)C[C@@H](Cc1ccccc1)C(=O)N[C@H]1c2ccccc2C[C@H]1O	NL4-3	Indinavir-resistant (PR L10R M46I L63P V82T I84V)	cytopathic effect / neutral red	0.0313 µM
Nc1cc(CN2C(=O)N(Cc3ccc4[nH]ncc4c3)[C@H](Cc3ccccc3)[C@H](O)[C@@H](O)[C@H]2Cc2ccccc2)ccc1F	RF			<0.014 µM
CC(C)CN(C[C@@H](O)[C@H](Cc1ccccc1)NC(=O)[C@@H](NC(=O)CNCc1cccc(F)c1)C(C)(C)C)S(=O)(=O)c1cccc(N)c1	IIIB		virus yield	<0.0046 µM
Nc1cccc(CN2C(=O)N(Cc3cccc(C(=O)Nc4nc5ccccc5[nH]4)c3)[C@H](Cc3ccccc3)[C@H](O)[C@@H](O)[C@H]2Cc2ccccc2)c1	RF			<0.0132 µM
CC(C)CN(C[C@@H](O)[C@H](Cc1ccccc1)NC(=O)O[C@H]1CCOC1)S(=O)(=O)c1ccc(N)cc1	GAG-L75R H219 V390 APV-resistant	Gag L75R R409K L449F E468K PR L10F V32I M46I I54M A71V I84V	cytopathic effect / MTT	>2.5 µM
CC(C)CN(C[C@@H](O)[C@H](Cc1ccccc1)NC(=O)[C@@H](NC(=O)CNCc1cccc(F)c1)C(C)(C)C)S(=O)(=O)c1ccc(N)cc1	THAI 9466		virus yield	<0.011 µM
O=C1N(Cc2cccc(NCc3nc4ccccc4s3)c2)[C@H](Cc2ccccc2)[C@H](O)[C@@H](O)[C@@H](Cc2ccccc2)N1Cc1ccc2[nH]ncc2c1	RF WT			<0.005 µM
CC(C)CN(C[C@@H](O)[C@H](Cc1ccc(F)cc1)NC(=O)O[C@H]1CCO[C@H]2OCC[C@H]21)S(=O)(=O)c1ccc2nc(NC(C)C)sc2c1	LAI		MTT	0.0002 µM
O=C1N(Cc2cccc(O)c2)[C@H](Cc2ccccc2)[C@H](O)[C@@H](O)[C@@H](Cc2ccccc2)N1Cc1ccc2[nH]ncc2c1	RF			<0.036 µM
CN1CC=C(CC2(CC3=CCN(C)CC3)C(=O)N(c3ccccc3)c3ccccc32)CC1	IIIB		cytopathic effect / XTT	2.4 µM
CCOP(=O)(COc1ccc(C[C@H](NC(=O)O[C@H]2CO[C@H]3OCC[C@H]32)[C@H](O)CN(CC(C)C)S(=O)(=O)c2ccc(OC)cc2)cc1)OCC	IIIB	R41K	p24 / ELISA	0.008 µM
COc1cccc(CN2C(=O)N(Cc3cccc(C(=O)Nc4cccc(C)n4)c3)[C@H](Cc3ccccc3)[C@H](O)[C@@H](O)[C@H]2Cc2ccccc2)c1	RF			<0.0427 µM
Cc1cn([C@H]2C[C@H](N=[N+]=[N-])[C@@H](CO)O2)c(=O)[nH]c1=O	IIIB	K112M K113E V128I M200I H219P I401T R409K D437N L441P R41K	p24 / ELISA	0.008 µM
CCN1CC=C(CC2(CC3=CCN(CC)CC3)C(=O)N(c3ccccc3)c3ccccc32)CC1	IIIB		cytopathic effect / XTT	3.8 µM
Cc1cccc(NC(=O)c2cccc(CN3C(=O)N(Cc4ccc5[nH]ncc5c4)[C@H](Cc4ccccc4)[C@H](O)[C@@H](O)[C@H]3Cc3ccccc3)c2)n1	RF			<0.003 µM
Cc1ccnc2c1NC(=O)c1cccnc1N2C1CC1	NL4-3		cytopathic effect / neutral red	0.174 µM
Cc1nc(CC2(Cc3csc(C)n3)C(=O)N(c3ccccc3)c3ccccc32)cs1	IIIB		cytopathic effect / XTT	4 µM
COc1cc(CN2C(=O)N(Cc3cccc(C(=O)Nc4cnccn4)c3)[C@H](Cc3ccccc3)[C@H](O)[C@@H](O)[C@H]2Cc2ccccc2)cc(OC)c1	RF			<0.7431 µM
Cc1ccc(S(=O)(=O)N(CC(C)C)C[C@@H](O)[C@H](Cc2ccccc2)NC(=O)O[C@H]2CO[C@H]3OCC[C@H]32)cc1	IIIB	ATV-P36 darunavir-resistant mutant	ATP	0.0019 µM
Nc1ccc(CN2C(=O)N(Cc3ccc4[nH]ncc4c3)[C@H](Cc3ccccc3)[C@H](O)[C@@H](O)[C@H]2Cc2ccccc2)cc1-c1ccn[nH]1	RF WT			<0.022 µM
Cc1ccc(NC(=O)c2cccc(CN3C(=O)N(Cc4cccc(C(=O)Nc5ccc(C)cn5)c4)[C@H](Cc4ccccc4)[C@H](O)[C@@H](O)[C@H]3Cc3ccccc3)c2)nc1	RF			<0.0031 µM
Cc1ccnc2c1NC(=O)c1cccnc1N2C1CC1	HX		RT activity	0.18 µM
O=C1N(Cc2cccc(Cn3ccnn3)c2)[C@H](Cc2ccccc2)[C@H](O)[C@@H](O)[C@@H](Cc2ccccc2)N1Cc1ccc2[nH]ncc2c1	RF			<0.03 µM
O=C(c1ccccc1)N1CCC(CC2C(=O)N(c3ccccc3)c3ccccc32)CC1	RF		plaque count	<11 µM
Nc1ccc(CN2C(=O)N(Cc3ccc4[nH]ncc4c3)[C@H](Cc3ccccc3)[C@H](O)[C@@H](O)[C@H]2Cc2ccccc2)cc1-n1nccn1	RF			<0.012 µM
CC(C)=CCN1Cc2cccc3[nH]c(=S)n(c23)C[C@@H]1C	PD165BC(RT-L92I)	RT-L92I	RT activity	0.079 µM
O=C(Cc1cccs1)c1cccc(CN2C(=O)N(Cc3ccc4[nH]ncc4c3)[C@H](Cc3ccccc3)[C@H](O)[C@@H](O)[C@H]2Cc2ccccc2)c1	RF			<0.018 µM
O=C(Nc1ccccn1)c1cccc(CN2C(=O)N(Cc3cccc(C(=O)Nc4ccccn4)c3)[C@H](Cc3ccccc3)[C@H](O)[C@@H](O)[C@H]2Cc2ccccc2)c1	RF			<0.0028 µM
[N-]=[N+]=N[C@]1(CO)O[C@@H](n2ccc(N)nc2=O)[C@@H](F)[C@@H]1O	NL4-3		luciferase	0.3 nM
CC(C)OC(=O)OCOP(=O)(CO[C@H](C)Cn1cnc2c(N)ncnc21)OCOC(=O)OC(C)C	74V (ddI- ddC-resistant RT L74V)	RT-L74V	p24	0.02 µM
N#CCNC(=O)c1cccc(CN2C(=O)N(Cc3cccc(C(=O)NCC(=O)O)c3)[C@H](Cc3ccccc3)[C@H](O)[C@@H](O)[C@H]2Cc2ccccc2)c1	RF			<0.741 µM
O=C1N(c2ccccc2)c2ccccc2C1(CCCc1cccnc1)CCCc1cccnc1	IIIB		cytopathic effect / XTT	1.9 µM

3 of the rows above, restated:

smiles,strain or isolate,mutations,read by,result
CCOP(=O)(COc1ccc(C[C@H](NC(=O)O[C@H]2CO[C@H]3OCC[C@H]32)[C@H](O)CN(CC(C)C)S(=O)(=O)c2ccc(OC)cc2)cc1)OCC,IIIB,R41K,p24 / ELISA,0.008 µM
Cc1ccnc2c1NC(=O)c1cccnc1N2C1CC1,HX,,RT activity,0.18 µM
O=C(c1ccccc1)N1CCC(CC2C(=O)N(c3ccccc3)c3ccccc32)CC1,RF,,plaque count,<11 µM